From US20160009789A1

Key:
93TH057 gp120 = test: SPR; deglycosylated
93TH057 = test: ELISA; deglycosylated

Work on Deglycosylated VRC01 yielded a Kd (93TH057 gp120) of 2.48 nM and an EC50 (93TH057) of 0.048 µg/mL.
